# Test results published in PubChem BioAssay AID1066 (SRMLSC, 2008).
# This is a selection; strong and weak results do not stand in their true shares. The source made the active and inactive calls.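 The calls were made as follows: active = inhibition above a set limit, the median over all tested compounds plus 3 SD (cut at about 9.5% in these data); inconclusive = no clear call, values can overlap the other calls; inactive = the rest.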
# Test system: HMG-CoA reductase (Enterococcus faecalis, mvaE)
# Assay: inhibitors of E. faecalis class II HMGR, primary screen, biochemical, Enterococcus faecalis (AID 1066);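 also: enzyme runs in reverse so mevalonate oxidation gives rising NADPH absorbance; 0% = complete reaction with DMSO and 100% = background rate lacking mevalonate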
# Details: purified E. faecalis HMGR, NADPH absorbance 340 nm kinetic; at 10 µM; active compounds read high
row,SMILES,inhibition
1,COc1ccc(C(=O)NCC2(N3CCOCC3)CCCCC2)cc1OC,inactive: -6.75%
2,O=C(OC1CN2CCC1CC2)C1c2ccccc2C=Cc2ccccc21 (stereo not given),inactive: 2%
3,N/C(=N\O)c1c(N)no[n+]1[O-],inactive: 2.46%
4,N#Cc1ccc(C(=O)NCC2(N3CCCCC3)CCCCC2)cc1,inactive: -4.66%
5,c1ccc(CN2CCC(Nc3ccccc3)CC2)cc1,inactive: -0.07%
6,Fc1ccccc1NC1CCN(Cc2ccccc2)CC1,inactive: -2.88%
7,CN(C)c1ccc(C(=O)NCC2(N3CCCCC3)CCCCC2)cc1,inactive: -1.02%
8,CCN1CCC(Nc2cccc(F)c2)CC1,inactive: -4.82%
9,CC(C)(C)OC(=O)N1CCC(Nc2ccccc2)CC1,inactive: -3.43%
10,CCOc1ncccc1C(=O)NCC1(N2CCOCC2)CCCCC1,inactive: -0.82%
11,CCC(CO)(C(=O)OC1CN2CCC1CC2)c1ccccc1 (stereo not given),inactive: -4.41%
12,COc1cc(OC)cc(C(=O)NCC2(N3CCOCC3)CCCCC2)c1,inactive: 1.14%
13,COc1ccc(C(=O)NCC2(N3CCCCC3)CCCCC2)c(OC)c1OC,inactive: -1.45%
14,CCOC(=O)N1CCC(Nc2ccc(OC)cc2)CC1,inactive: -0.06%
15,O=C(OC1CN2CCC1CC2)C1c2ccccc2Oc2ccccc21 (stereo not given),inactive: -2.94%
16,O=C(NCC1(N2CCOCC2)CCCCC1)c1cc2ccccc2o1,inactive: -1.2%
17,COc1ccc(NC2CCN(CCc3ccccc3)CC2)c(OC)c1,inactive: 0.59%
18,O=C(NCC1(N2CCCCC2)CCCCC1)c1cccc([N+](=O)[O-])c1,inactive: 0.49%
19,N#CC1(Nc2ccccc2)CCN(CCc2ccccc2)CC1,inactive: -1.17%
20,COc1ccc(NC2CCN(C(=O)OC(C)(C)C)CC2)cc1,inactive: -2.57%
21,CN1CCN(CCOC(=O)C(O)(c2ccccc2)c2ccccc2)CC1,inactive: -4.2%
22,O=C(NCC1(N2CCOCC2)CCCCC1)c1cc(=O)[nH]c2ccccc12,inactive: -0.22%
23,COc1ccc(CN(CCCl)CCCl)cc1Cl,inactive: -2.14%
24,CN(C)c1cccc(C(=O)NCC2(N3CCCCC3)CCCCC2)c1,inactive: -2.45%
25,CC(C)c1ccc(NC2CCN(C(=O)OC(C)(C)C)CC2)cc1,inactive: -1.59%
